Source: ChEMBL document CHEMBL1131307, “Novel nonnucleoside inhibitors of HIV-1 reverse transcriptase. 8. 8-Aryloxymethyl- and 8-arylthiomethyldipyridodiazepinones” (J Med Chem, 1998)

Columns and labels:
[1] = biological target: Human immunodeficiency virus type 1 reverse transcriptase (Human immunodeficiency virus 1, UniProt Q72547, Y181C); experiment: Inhibitory activity against HIV-1 Y181C reverse transcriptase.
[2] = biological target: Human immunodeficiency virus type 1 reverse transcriptase (Human immunodeficiency virus 1, UniProt Q72547, Y188L); experiment: Inhibitory activity against HIV-1 Y188L reverse transcriptase.

Row | SMILES | IC50 [1] | IC50 [2]
1 | CCN1c2ncc(COc3ccccc3F)cc2C(=O)N(C)c2ccc(Cl)nc21 | 0.57 µM | 
2 | CCN1c2ncc(COc3cccc(O)c3)cc2C(=O)N(C)c2ccc(Cl)nc21 | 0.25 µM | 0.78 µM
